Compound potency records, mixed from different reports. Data source: NIAID ChemDB in PubChem.

Shared fields: whole-cell or culture tests; agent: HIV-1

ECn is the concentration giving n% inhibition of infection, replication or growth. Rows are shuffled and stem from different studies. Blank or dashed fields: not listed here.

compound	strain	conditions	changes	measure	cells	method	result
CC[C@@H]1[C@H](O)[C@@H](O)[C@@H](Cc2ccccc2)N(Cc2cccc(C(=O)Nc3nc4ccccc4[nH]3)c2)C(=O)N1Cc1cccc(C(=O)Nc2nc3ccccc3[nH]2)c1	RF	3 d	-	EC90	MT-2	-	0.026 µM
Nc1nc(=O)n([C@@H]2C[C@H](O)[C@@H](CO)O2)cc1-c1ccncc1	IIIB	-	-	EC50	H9	RT activity	>10 µg/mL
Cc1nc2ccccc2n1C1C[C@H]2CC[C@@H](C1)N2CCC(CN(C)S(=O)(=O)c1ccccc1)c1ccccc1	-	-	-	EC50	HOS-CD4-CCR5	luciferase	<0.01 µM
Nc1nc(=O)n([C@H]2C[C@H](O)[C@@H](CO)O2)cc1C1CC1	IIIB	-	-	EC50	H9	RT activity	>10 µg/mL
Cc1cn([C@H]2C[C@H](N=[N+]=[N-])[C@@H](CO)O2)c(=O)[nH]c1=O	GKV-4046	-	-	EC50	MT-4	p24	0.018 µM
COc1ccc(N2CCN(C(=O)CCN3CCCc4cc(OC)ccc43)CC2)cc1	IIIB	-	-	EC50	C8166	syncytia / visual reading	21.54 µg/mL
CCCCCCCCCCCCCCCCCCOC[C@@H](O)COP(=O)(O)C(=O)O	LAI	-	-	EC50	MT-2	p24	1.4 µM
Cc1cn([C@H]2C[C@H](N=[N+]=[N-])[C@@H](CO)O2)c(=O)nc1NN(C)C	IIIB	-	-	EC50	C8166	MTT / ELISA	0.064 µM
Nc1nc(N)c2ncn(CCOCP(=O)(O)O)c2n1	IIIB	-	-	EC50	MT-4	MTT	2.6 µM
Cc1cn([C@@H]2O[C@H](C)C3(OS(=O)(=O)C=C3N)[C@H]2O[Si](C)(C)C(C)(C)C)c(=O)[nH]c1=O	IIIB	-	-	EC50	CEM	syncytia	>20 µg/mL
CSCC[C@@H]1[C@H](O)[C@@H](O)[C@@H](CCSC)N(Cc2ccc(CO)cc2)C(=O)N1Cc1ccc(CO)cc1	RF	-	-	EC90	MT-2	hybridisation	>10 µM
Nc1ccn([C@H]2CC[C@@H](CO)O2)c(=O)n1	IIIB	-	-	EC50	MT-4	MTT	0.0994 µg/mL
O=P(O)(O)Cc1cc2c(O)c(c1)Sc1cc(CP(=O)(O)O)cc(c1O)Sc1cc(CP(=O)(O)O)cc(c1O)Sc1cc(CP(=O)(O)O)cc(c1O)S2	-	-	integrase inhibitor resistance mutation	EC50	TZM-bl + MT-2	luciferase	2.3 µM
COC(=O)N[C@H](C(=O)N[C@@H](Cc1ccccc1)[C@@H](O)CN(Cc1ccc(-c2ccccn2)cc1)NC(=O)[C@@H](NC(=O)OC)C(C)(C)C)C(C)(C)C	HXB2	-	-	EC50	MT-2	cytopathic effect	0.0027 µM
O=C1N(Cc2ccccc2)[C@H](Cc2ccoc2)[C@H](O)[C@@H](O)[C@@H](Cc2ccoc2)N1Cc1ccccc1	RF	-	-	EC50	MT-2	hybridisation	<7.8 µM
Cc1cn([C@H]2C[C@H](N=[N+]=[N-])[C@@H](CO)O2)c(=O)[nH]c1=O	-	-	-	EC50	PBMC	cytopathic effect / MTT	0.004 µM
CC(C)(C)NC(=O)[C@@H]1CCCN1C[C@@H](O)C[C@@H](Cc1ccccc1)C(=O)N[C@H]1c2ccccc2C[C@H]1O	IIIB	-	-	EC50	MT-4	p24	<1.5 µM
O=C(Nc1nc2ccccc2[nH]1)c1cccc(CN2C(=O)N(Cc3cccc(C(=O)Nc4nc5ccccc5[nH]4)c3)[C@H](Cc3ccc(O)cc3)[C@H](O)[C@@H](O)[C@H]2Cc2ccc(O)cc2)c1	RF	3 d	-	EC50	MT-2	-	<0.035 µM
CCCCCCc1ccsc1-c1cn([C@H]2C[C@H](OC(=O)c3ccc(C)cc3)[C@@H](COC(=O)c3ccc(C)cc3)O2)c(=O)[nH]c1=O	IIIB	-	-	EC50	H9	RT activity	<10 µg/mL
CC(C)(C)NC(=O)[C@@H]1CN(CCOCc2ccccc2)CCN1C[C@@H](O)C[C@@H](Cc1ccccc1)C(=O)N[C@H]1c2ccccc2C[C@H]1O	IIIB	-	-	EC50	MT-4	p24	<0.1 µM
S=C(NCCc1cccs1)Nc1ccc(Br)cn1	NRTI resistant (RT L74V M41L V106A T215Y) MDR	-	RT-L74V M41L V106A T215Y	EC50	PBMC	p24	0.004 µM
Nc1nc(=O)n([C@H]2C[C@H](O)[C@@H](CO)O2)cc1-c1cccs1	IIIB	-	-	EC50	H9	RT activity	>10 µg/mL
S=C(NCCc1ccccn1)Nc1ccc(Br)cn1	NRTI resistant (RT Y181C K103N) A17 variant	-	RT-Y181C K103N	EC50	PBMC	p24	>100 µM
CCCc1nnc(C[C@H](C[C@H](O)CN2CCN(C(C)(C)c3ncc(-c4cncc(OC)c4)o3)C[C@H]2C(=O)NCC(F)(F)F)C(=O)N[C@H]2c3ccccc3OC[C@H]2O)o1	Q-60 Clinical isolate	-	PR-L10I N37S R41K M46I I54V I62V L63P A71V V77I V82A L90M I93L	EC95	MT-4	p24	0.5 µM
COc1ccc2c(c1)CCCN2CCC(=O)N1CCN(c2ccc(C)cc2)CC1	IIIB	-	-	EC50	C8166	syncytia / visual reading	14.98 µg/mL
CCOP(=O)(OC[C@H]1O[C@@H](n2cc(C)c(=O)[nH]c2=O)C[C@@H]1N=[N+]=[N-])C(=O)NCCc1ccccc1	GKV-4046	-	-	EC50	MT-4	p24	<0.0002 µM
CCCCCCCCCCCCCCCCCCOC[C@H](CO)OC	-	-	-	EC50	HT4 + HT4-6C	plaque count	>316 µM
CCCc1cc(=O)oc2c(C(=O)C(C)(C)C(C)O)c(O)c3c(c12)OC(C)(C)C=C3	IIIB	-	-	EC50	CEM + CEM-SS	cytopathic effect / MTT	>37 µM
COc1ccc(C[C@@H]2[C@H](O)[C@@H](O)[C@@H](Cc3ccc(OC)cc3)N(Cc3cccc(C(=O)Nc4nc5ccccc5[nH]4)c3)C(=O)N2Cc2cccc(C(=O)Nc3nc4ccccc4[nH]3)c2)cc1	RF	3 d	-	EC90	MT-2	-	0.019 µM
COc1cccc(N2CCN(C(=O)CCN3CCCc4cc(OC)ccc43)CC2)c1	IIIB	-	-	EC50	C8166	syncytia / visual reading	20.43 µg/mL
COCCN(CCOC)CCOc1ccc(C[C@H](C[C@H](O)[C@H](Cc2ccccc2)NC(=O)OC(C)(C)C)C(=O)N[C@H]2c3ccccc3C[C@H]2O)cc1	IIIB	-	-	EC50	H9	antigen	<0.05 µM
O=C1N(Cc2ccc(CO)cc2)[C@H](Cc2ccccc2)[C@H](O)[C@@H](O)[C@@H](Cc2ccccc2)N1Cc1ccc(CO)cc1	NL4-3	-	PR-I84V	EC50	MT-4	p24	<3 µM
CCCCCCCCCCCCCCCCCCOC[C@H](COP(=O)(O)C(=O)O)OC	LAI	-	-	EC50	MT-2	p24	0.28 µM
Cc1ccc(-c2ccc3c(c2)C=C(C(=O)Nc2ccc(C[N+](C)(C)C4CCOCC4)cc2)CCC3)cc1	BaL	-	-	EC50	PBMC	p24	0.0037 µM
Cc1ccc(C(=O)OC[C@H]2O[C@@H](n3cc(-c4cccn4C)c(N)nc3=O)C[C@@H]2OC(=O)c2ccc(C)cc2)cc1	IIIB	-	-	EC50	H9	RT activity	>10 µg/mL
Nc1ncnc2c1ncn2[C@@H]1C=C[C@H](CO)O1	LAV	-	-	EC50	PBMC	RT activity	0.38 µM
Cc1nnc(C[C@H](C[C@H](O)CN2CCN(C(C)(C)c3ncc(-c4ccc(Cl)cc4)o3)C[C@H]2C(=O)NCC(F)(F)F)C(=O)N[C@H]2c3ccccc3OC[C@H]2O)o1	NL4-3 WT	-	-	EC50	MT-4	p24	<0.25 µM
Cc1cn([C@@H]2O[C@H](CC3CCCCC3)C3(OS(=O)(=O)C=C3N)[C@H]2OC(=O)c2ccccc2)c(=O)[nH]c1=O	IIIB	-	-	EC50	CEM	syncytia	>4 µg/mL
Cc1cn([C@@H]2C[C@@H](N=[N+]=[N-])[C@H](CO)O2)c(=O)[nH]c1=O	LAV	-	-	EC50	PBMC	RT activity	>100 µM
Cc1cn([C@@H]2O[C@H](CO[Si](C)(C)C(C)(C)C)[C@@]3(OS(=O)(=O)C=C3N)[C@H]2O[Si](C)(C)C(C)(C)C)c(=O)[nH]c1=O	IIIB	-	-	EC50	MT-4	cytopathic effect / trypan blue	0.03 µg/mL
Nc1nc(=O)n([C@H]2C[C@H](O)[C@@H](CO)O2)cc1-c1ccc(-c2ccccc2)s1	IIIB	-	-	EC50	H9	RT activity	>10 µg/mL
Cc1cn([C@H]2C[C@H](N=[N+]=[N-])[C@@H](CO)O2)c(=O)nc1NO	IIIB	-	-	EC50	C8166	MTT / ELISA	4 µM
CC(C)(C)NC(=O)[C@@H]1C[C@@H]2CCCC[C@@H]2CN1C[C@@H](O)C[C@@H](Cc1ccccc1)C(=O)N[C@H]1c2ccccc2C[C@H]1O	IIIB	-	-	EC50	MT-4	p24	<0.4 µM
CC(=O)O[C@@H]1[C@H](n2cc(C)c(=O)[nH]c2=O)O[C@@H](COC(=O)c2ccccc2)C12OS(=O)(=O)C=C2N	IIIB	-	-	EC50	CEM	syncytia	31 µg/mL
CCCc1nnc(C[C@H](C[C@H](O)CN2CCN(C(C)(C)c3ncc(-c4ccc(Cl)cc4)o3)C[C@H]2C(=O)NCC(F)(F)F)C(=O)N[C@H]2c3ccccc3OC[C@H]2O)o1	Q-60 Clinical isolate	-	PR-L10I N37S R41K M46I I54V I62V L63P A71V V77I V82A L90M I93L	EC50	MT-4	p24	<0.008 µM
CC(C)(C)NC(=O)[C@@H]1CNCCN1C[C@@H](O)C[C@@H](Cc1ccccc1)C(=O)N[C@H]1c2ccccc2C[C@H]1O	IIIB	-	-	EC50	MT-4	p24	<3 µM
CC(C)(C)NC(=O)[C@@H]1C[C@@H]2CCCC[C@@H]2CN1C[C@@H](O)[C@H](Cc1ccccc1)NC(=O)[C@H](CC(N)=O)NC(=O)c1ccc2ccccc2n1	NL4-3	-	PR-M46I V82T	EC95	MT-4	p24	0.025 µM
COc1ccc2c(c1)CCCN2CCC(=O)N1CCN(c2ccccc2F)CC1	IIIB	-	-	EC50	C8166	syncytia / visual reading	17.89 µg/mL
CCCCCCCCCCCCCCCCCCOC[C@H](COP(=O)(O)C(=O)O)OCCCC	LAI	-	-	EC50	MT-2	p24	0.69 µM
Cc1nnc(C[C@H](C[C@H](O)CN2CCN(C(C)(C)c3ncc(-c4ccc(F)cc4)o3)C[C@H]2C(=O)NCC(F)(F)F)C(=O)N[C@H]2c3ccccc3OC[C@H]2O)o1	V-18 Clinical isolate	-	PR-L10I M36I N37D M46I R57K L63P A71V G73S I84V L90M I93L	EC95	MT-4	p24	0.063 µM
O=C(CO)N[C@@H]([C@@H](O)[C@H](O)[C@H](O)CO)[C@@H](O)C(=O)C(=O)O	ROJO	-	-	EC50	PBMC	RT activity	58 µM
Nc1ncnc2c1ncn2CCOCP(=O)(O)O	IIIB	-	-	EC50	MT-4	MTT	5.3 µM
CN(C)c1ccc(C[C@@H]2[C@H](O)[C@@H](O)[C@@H](Cc3ccc(N(C)C)cc3)N(Cc3cccc(C(=O)Nc4nc5ccccc5[nH]4)c3)C(=O)N2Cc2cccc(C(=O)Nc3nc4ccccc4[nH]3)c2)cc1	RF	3 d	PR-I84V V82F	EC50	MT-2	-	<0.022 µM
CCCCCCCCCCCCCCCCCCOC[C@@H](COP(=O)(O)C(=O)O)OCCCCCCCCCCCC	LAI	-	-	EC50	MT-2	p24	59.7 µM
CCOP(=O)(OC[C@@H]1C=C[C@H](n2cc(C)c(=O)[nH]c2=O)O1)C(N)=O	GKV-4046	-	-	EC50	MT-4	p24	0.9 µM
CCCc1cc(=O)oc2c3c(c4c(c12)OC(C)(C)C=C4)OC(C)(C)[C@H](C)C3=O	IIIB	-	-	EC50	CEM + CEM-SS	cytopathic effect / MTT	>21 µM
CCCc1nnc(C[C@H](C[C@H](O)CN2CCN(C(C)(C)c3ncc(-c4ccc(F)cc4)o3)C[C@H]2C(=O)NCC(F)(F)F)C(=O)N[C@H]2c3ccccc3OC[C@H]2O)o1	NL4-3 WT	-	-	EC50	MT-4	p24	<0.016 µM
Cc1cn([C@H]2C[C@H](N=[N+]=[N-])[C@@H](CO)O2)c(=O)nc1N(C)C	IIIB	-	-	EC50	C8166	MTT / ELISA	1.6 µM
CC(C)(C)OC(=O)N[C@@H](Cc1ccccc1)[C@@H](O)C[C@@H](Cc1ccc(OCCN2CCOCC2)cc1)C(=O)N[C@H]1c2ccccc2C[C@H]1O	WMJ-2	-	-	EC50	MT-4	antigen	<0.006 µM
O=C(N[C@H]1c2ccccc2OC[C@H]1O)[C@H](Cc1nnc(-c2ccccc2)o1)C[C@H](O)CN1CCN(Cc2ccc(-c3ccc(Cl)cc3)o2)C[C@H]1C(=O)NCC(F)(F)F	V-18 Clinical isolate	-	PR-L10I M36I N37D M46I R57K L63P A71V G73S I84V L90M I93L	EC95	MT-4	p24	0.25 µM
COc1ccc(C[C@@H]2[C@H](O)[C@@H](O)[C@@H](Cc3ccc(OC)cc3)N(Cc3ccccc3)C(=O)N2Cc2ccccc2)cc1	RF	-	-	EC50	MT-2	hybridisation	<0.6 µM
O=C(Nc1nc2ccccc2[nH]1)c1cccc(CN2C(=O)N(Cc3cccc(C(=O)Nc4nc5ccccc5[nH]4)c3)[C@H](Cc3ccc(OCc4ccccc4)cc3)[C@H](O)[C@@H](O)[C@H]2Cc2ccc(OCc3ccccc3)cc2)c1	RF	3 d	-	EC90	MT-2	-	0.125 µM
O=C1N(Cc2ccccc2)[C@H](CCc2ccccc2)[C@H](O)[C@@H](O)[C@@H](CCc2ccccc2)N1Cc1ccccc1	RF	-	-	EC90	MT-2	hybridisation	>10 µM
Nc1nc(=O)n([C@H]2C[C@H](OC(=O)c3ccccc3)[C@@H](COC(=O)c3ccccc3)O2)cc1-c1cccs1	IIIB	-	-	EC50	H9	RT activity	>10 µg/mL
Nc1ccn([C@H]2CC[C@@H](CO)O2)c(=O)n1	H112-2	-	-	EC50	MT-2	cytopathic effect / MTT	0.32 µM
COc1ccc2c(c1)CCCN2CCC(=O)N1CCN(c2cccc(Cl)c2)CC1	IIIB	-	-	EC50	C8166	syncytia / visual reading	18.38 µg/mL
CN(C)c1ccc(C[C@@H]2[C@H](O)[C@@H](O)[C@@H](Cc3ccc(N(C)C)cc3)N(Cc3ccccc3)C(=O)N2Cc2ccccc2)cc1	RF	-	-	EC50	MT-2	hybridisation	<2.7 µM